{"source": "patent US20160298165A1", "about": "(priority 2013, published 2016)", "data": [{"system": "M. tuberculosis H37Rv", "experiment": "Growth curves / viability (CFUs) of treated M. tuberculosis cultures", "format": "cell-based, Mycobacterium tuberculosis", "details": "4 mM compound combined with INH", "values": [{"compound": "N[C@@H](CO)C(=O)O", "effect on killing / emergence of resistant population when combined with INH": "did not increase the killing"}, {"compound": "L-Methionine", "effect on killing / emergence of resistant population when combined with INH": "did not increase the killing"}, {"compound": "CC(=O)N[C@@H](CS)C(=O)O", "effect on killing / emergence of resistant population when combined with INH": "did not prevent the emergence of a drug-resistant population"}, {"compound": "N[C@H](CS)C(=O)O", "effect on killing / emergence of resistant population when combined with INH": "the same effect"}]}]}
